Source: patent US20240132578A1

What was measured:
Assay in all cases: cell-based or functional assay
[1] = target: 162-pseudovirus panel representing all major circulating HIV-1 subtypes
[2] = target: HIV-1 Env of all pseudoviruses of the cross-clade 162-pseudovirus panel (n = 162)
[3] = target: HIV-1 clade A Env pseudoviruses of the cross-clade 162-pseudovirus panel (n=26)
[4] = target: HIV-1 clade AG Env pseudoviruses of the cross-clade 162-pseudovirus panel (n=10)
[5] = target: HIV-1 clade B Env pseudoviruses of the cross-clade 162-pseudovirus panel (n=31)
[6] = target: HIV-1 clade C Env pseudoviruses of the cross-clade 162-pseudovirus panel (n=27)
[7] = target: HIV-1 clade D Env pseudoviruses of the cross-clade 162-pseudovirus panel (n=25)
[8] = target: HIV-1 clade F Env pseudoviruses of the cross-clade 162-pseudovirus panel (n=15)
[9] = target: HIV-1 clade G Env pseudoviruses of the cross-clade 162-pseudovirus panel (n=15)
[10] = target: HIV-1 clade AE Env pseudoviruses of the cross-clade 162-pseudovirus panel (n=10)

Row | Binder | Median IC50 (µg/ml) against viruses neutralized with an IC50 <50 µg/ml [1] | Median IC50 (µg/ml) against viruses neutralized with an IC50 <50 µg/ml [2] | Median IC50 (µg/ml) against viruses neutralized with an IC50 <50 µg/ml (section D) [3] | Median IC50 (µg/ml) against viruses neutralized with an IC50 <50 µg/ml (section D) [4] | Median IC50 (µg/ml) against viruses neutralized with an IC50 <50 µg/ml (section D) [5] | Median IC50 (µg/ml) against viruses neutralized with an IC50 <50 µg/ml (section D) [6] | Median IC50 (µg/ml) against viruses neutralized with an IC50 <50 µg/ml (section D) [7] | Median IC50 (µg/ml) against viruses neutralized with an IC50 <50 µg/ml (section D) [8] | Median IC50 (µg/ml) against viruses neutralized with an IC50 <50 µg/ml (section D) [9] | Median IC50 (µg/ml) against all viruses [10] | Median IC50 (µg/ml) against all viruses [7] | further results
1 | 4838_L06 (PGT-121) (antibody, V domains shown) VH: QMQLQESGPGLVKPSETLSLTCSVSGASISDSYWSWIRRSPGKGLEWIGYVHKSGDTNYSPSLKSRVNLSLDTSKNQVSLSLVAATAADSGKYYCARTLHGRRIYGIVAFNEWFTYFYMDVWGNGTQVTVSS VL: SDISVAPGETARISCGEKSLGSRAVQWYQHRAGQAPSLIIYNNQDRPSGIPERFSGSPDSPFGTTATLTITSVEAGDEADYYCHIWDSRVPTKWVFGGGTTLTVL | 0.03 µg/mL | 0.03 µg/mL | – | – | – | – | – | – | – | – | – | Percent viruses neutralized, IC50 < 50 µg/ml [1]: 70%
2 | 4877_D15 (PGT-122) (antibody, V domains shown) VH: QVHLQESGPGLVKPSETLSLTCNVSGTLVRDNYWSWIRQPLGKQPEWIGYVHDSGDTNYNPSLKSRVHLSLDKSKNLVSLRLTGVTAADSAIYYCATTKHGRRIYGVVAFKEWFTYFYMDVWGKGTSVTVSS VL: TFVSVAPGQTARITCGEESLGSRSVIWYQQRPGQAPSLIIYNNNDRPSGIPDRFSGSPGSTFGTTATLTITSVEAGDEADYYCHIWDSRRPTNWVFGEGTTLIVL | 0.05 µg/mL | 0.05 µg/mL | 0.33 µg/mL | 0.97 µg/mL | 0.15 µg/mL | 0.17 µg/mL | 0.11 µg/mL | 5.53 µg/mL | 0.65 µg/mL | – | – | –
3 | 4858_P08 (PGT-123) (antibody, V domains shown) VH: QLHLQESGPGLVKPPETLSLTCSVSGASINDAYWSWIRQSPGKRPEWVGYVHHSGDTNYNPSLKRRVTFSLDTAKNEVSLKLVDLTAADSATYFCARALHGKRIYGIVALGELFTYFYMDVWGKGTAVTVSS VL: SSMSVSPGETAKISCGKESIGSRAVQWYQQKPGQPPSLIIYNNQDRPAGVPERFSASPDFRPGTTATLTITNVDAEDEADYYCHIYDARGGTNWVFDRGTTLTVL | 0.03 µg/mL | 0.03 µg/mL | 0.18 µg/mL | 2.27 µg/mL | 0.14 µg/mL | 0.08 µg/mL | 0.13 µg/mL | 0.74 µg/mL | 0.19 µg/mL | – | – | Percent viruses neutralized, IC50 < 0.1 µg/ml [1]: 40%
4 | 5145_B14 (PGT-127) (antibody, V domains shown) VH: QPQLQESGPGLVEASETLSLTCTVSGDSTGRCNYFWGWVRQPPGKGLEWIGSLSHCRSYYNTDWTYHNPSLKSRLTISLDTPKNQVFLRLTSVTAADTATYYCARFGGEVLVYRDWPKPAWVDLWGRGTLVVTVSS VL: QSALTQPPSASGSPGQSITISCTGTSNNFVSWYQQYPGKAPKLVIYEVNKRPSGVPDRFSGSKSGSTASLTVSGLQADDEGVYYCSSLVGNWDVIFGGGTKLTVL | 0.08 µg/mL | 0.08 µg/mL | 0.16 µg/mL | 0.24 µg/mL | 0.36 µg/mL | 7.99 µg/mL | 0.18 µg/mL | 0.86 µg/mL | 0.67 µg/mL | – | – | Percent viruses neutralized, IC50 < 50 µg/ml [1]: 50%
5 | 4995_E20 (PGT-142) (antibody, V domains shown) VH: QVQLVQSGPEVKKPGSSVKVSCKASGNTFSKYDVHWVRQATGQGLEWVGWISHERDKTESAQRFKGRVTFTRDTSATTAYMELRGLTSDDTAIYYCTRGSKHRLRDYVLYDDYGLINYQEWNDYLEFLDVWGHGTAVTVSS VL: DTVVTQSPLSLPVTPGEAASMSCSSTQSLRHSNGANYLAWYQHKPGQSPRLLIRLGSQRASGVPDRFSGSGSGTHFTLKISRVEAEDAAIYYCMQGLNRPWTFGKGTKLEIK | – | – | – | – | – | – | – | – | – | > 50 µg/mL | > 50 µg/mL | Percent viruses neutralized, IC50 < 1 µg/ml [1]: 40%
6 | 4980_N08 (PGT-143) (antibody, V domains shown) VH: QVQLEQSGAEVKKPGSSVKVSCKASGNTFSKYDVHWVRQATGQGLEWVGWMSHEGDKTESAQRFKGRVTFTRDTSASTAYMELRGLTSDDTAIYYCTRGSKHRLRDYVLYDDYGLINYQEWNDYLEFLDVWGHGTAVTVSS VL: DTVVTQSPLSLPVTPGEAASMSCTSTQSLRHSNGANYLAWYQHKPGQSPRLLIRLGSQRASGVPDRFSGSGSGTHFTLKISRVEPEDAAIYYCMQGLNRPWTFGKGTKLEIK | – | – | – | – | – | – | – | – | – | > 50 µg/mL | > 50 µg/mL | Median IC50 (µg/ml) against all viruses [6]: 0.8 µg/mL
7 | 4993_K13 (PGT-141) (antibody, V domains shown) VH: QVQLVQSGPEVKKPGSSVKVSCKASGNTFSKYDVHWVRQATGQGLEWVGWMSHEGDKTESAQRFKGRVTFTRDTSASTAYMELRGLTSDDTAIYYCTRGSKHRLRDYVLYDDYGLINYQEWNDYLEFLDVWGHGTAVTVSS VL: DTVVTQSPLSLPVTPGEAASMSCSSTQSLRHSNGANYLAWYQHKPGQSPRLLIRLGSQRASGVPDRFSGSGSGTHFTLKISRVEAEDAAIYYCMQGLNRPWTFGKGTKLEIK | – | – | – | – | – | – | – | – | – | > 50 µg/mL | > 50 µg/mL | –
8 | 4995_P16 (PGT-145) (antibody, V domains shown) VH: QVQLVQSGAEVKKPGSSVKVSCKASGNSFSNHDVHWVRQATGQGLEWMGWMSHEGDKTGLAQKFQGRVTITRDSGASTVYMELRGLTADDTAIYYCLTGSKHRLRDYFLYNEYGPNYEEWGDYLATLDVWGHGTAVTVSS VL: EVVITQSPLFLPVTPGEAASLSCKCSHSLQHSTGANYLAWYLQRPGQTPRLLIHLATHRASGVPDRFSGSGSGTDFTLKISRVESDDVGTYYCMQGLHSPWTFGQGTKVEIK | – | – | – | – | – | – | – | – | – | – | 10 µg/mL | –
9 | 5343_B08 (PGT-135) (antibody, V domains shown) VH: QLQMQESGPGLVKPSETLSLSCTVSGDSIRGGEWGDKDYHWGWVRHSAGKGLEWIGSIHWRGTTHYKESLRRRVSMSIDTSRNWFSLRLASVTAADTAVYFCARHRHHDVFMLVPIAGWFDVWGPGVQVTVSS VL: EIVMTQSPDTLSVSPGETVTLSCRASQNINKNLAWYQYKPGQSPRLVIFETYSKIAAFPARFVASGSGTEFTLTINNMQSEDVAVYYCQQYEEWPRTFGQGTKVDIK | – | – | 1.01 µg/mL | – | 2.87 µg/mL | 0.28 µg/mL | 1.13 µg/mL | 1.26 µg/mL | 1.01 µg/mL | – | – | –
